Measured values taken from ChEMBL document CHEMBL2375250, “Efficient synthesis of new (R)-2-amino-1-butanol derived ureas, thioureas and acylthioureas and in vitro evaluation of their antimycobacterial activity” (Eur J Med Chem, 2013).

Assays:
[1] = system: Mycobacterium tuberculosis; assay: Antimycobacterial activity against multidrug-resistant Mycobacterium tuberculosis 43 assessed as growth inhibition after 45 days by Lowenstein-Jensen method
[2] = Selectivity index, ratio of IC50 for HEK293T cells to MIC for Mycobacterium tuberculosis H37Rv
[3] = system: Mycobacterium tuberculosis; assay: Antimycobacterial activity against Mycobacterium tuberculosis H37Rv assessed as growth inhibition after 45 days by Lowenstein-Jensen method

With `CC[C@H](CO)NC(=S)NP(=O)(c1ccccc1)c1ccccc1` the MIC [1] was 11.5 µM (≈ 4 µg/mL), the Selectivity Index [2] was 31.3 and the MIC [3] was 5.74 µM (≈ 2 µg/mL).

In brackets after ≈: the same amount, converted by molar mass.
